Data published in US20230233483A1, “COMPOUND AND METHOD FOR THE TREATMENT OF CORONAVIRUSES” (Apteeus, priority 2020, published 2023).

Experiment: Cmax in human lung tissue of patients (literature)
Assay type: in vivo

SMILES: CC(C)(C)CC(C)(C)c1ccc(O)c(Cc2ccc(Cl)cc2Cl)c1 [clofoctol, 2-(2,4-Dichlorobenzyl)-4-(1,1,3,3-tetramethylbutyl)phenol]
- EC95 times less than Cmax in human lung tissue (EC95 about 21-25 µM vs Cmax about 250 µM): about 10 times
- IC95 times less than Cmax in human lung tissue (IC95 about 9-11 µM vs Cmax about 250 µM): about 25 times
